{"source": "patent US20210221791A1", "about": "“COMPOUNDS” (UNIVERSITETET I OSLO, priority 2016, published 2021)", "system": "K. pneumoniae K66-45", "type": "cell-based", "method": "After plating and grown overnight at 37° C., only single colonies, ignoring any touching the edges of the plate, were counted.\n10^9 CFU K66-45 (Mueller-Hinton broth, no selection) was plated and grown overnight, 37° C. Only single colonies, ignoring any touching the edges of the plate, were counted.", "note": "Read-outs that look alike come from different tables or passages of the source.", "data": [{"smiles": "CN(C[C@H](O)[C@@H](O)[C@H](O)[C@H](O)CO)C(=O)c1ccc(CN(Cc2ccccn2)Cc2ccccn2)nc1", "note": "[Example 26, 6-((bis(pyridin-2-ylmethyl)amino)methyl)-N-methyl-N-((2S,3R,4R,5R)-2,3,4,5,6-pentahydroxyhexyl)nicotinamide]", "values": [{"measurement": "Resistance/mutant frequency (number of colonies)", "setting": "inhibitor 15 mg/L, 4 mg/L MEM", "result": 4}, {"measurement": "Resistance/mutant frequency (number of colonies)", "setting": "inhibitor 15 mg/L, 8 mg/L MEM", "result": "n.c. (n.c. = no colonies)"}, {"measurement": "Resistance/mutant frequency (number of colonies)", "setting": "inhibitor 25 mg/L, 4 mg/L MEM", "result": "n.c. (n.c. = no colonies)"}, {"measurement": "Resistance/mutant frequency (number of colonies)", "setting": "inhibitor 25 mg/L, 8 mg/L MEM", "result": "n.c. (n.c. = no colonies)"}, {"measurement": "Resistance/mutant frequency (number of colonies)", "setting": "inhibitor 50 mg/L, 4 mg/L MEM", "result": "n.c. (n.c. = no colonies)"}, {"measurement": "Resistance/mutant frequency (number of colonies)", "setting": "inhibitor 50 mg/L, 8 mg/L MEM", "result": "n.c. (n.c. = no colonies)"}]}]}
